## Library screen at single concentrations

Each number is a percent effect as filed. The controls that fix the scale are not given in the record; negative values are as filed. Many other results are left out here, so strong results are more common than in the screen.

Mtb glucose medium: 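Phenotypic screen: M. tuberculosis growth, glucose 7H9 medium, 3 days; the read-out is not stated. Concentration: 500 µM. Direction is inferred from retests: higher values go with more growth inhibition. About 18,000 compounds were tested under these conditions; 7.9% (about 1,400) showed 50% or more at least once.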
Mtb cholesterol medium: 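Growth of Mycobacterium tuberculosis over 4 days (cholesterol / DPPC medium with tyloxapol); the read-out is not stated. Compounds at 500 µM. Direction is inferred from retests: higher values go with more growth inhibition. Of about 18,000 compounds tested this way, about 900 (5%) reached 50% or more in at least one test.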

With CC(C(=O)NCc1ncccc1F)N1CCSCC1 (stereo not given) the screen gave Mtb cholesterol medium: 17.16%.
With Cc1nnc(SCC(=O)NCC(C)C)s1 the screen gave Mtb glucose medium: 16.04%; Mtb cholesterol medium: 11.78%.
With NC1CCN(Cc2ccccc2)C1=O (stereo not given) the screen gave Mtb glucose medium: -4.999%; Mtb cholesterol medium: -34.45%.
With CC(=O)NCC1CCN(Cc2ccccc2)C1 (stereo not given) the screen gave Mtb glucose medium: 21.87%.
With Nc1nc(CCNC(=O)CN2CCOC2=O)cs1 the screen gave Mtb glucose medium: -2.774%.
With CCN(CC1CCNCC1)CC1CCCO1 (stereo not given) the screen gave Mtb cholesterol medium: -4.467%.
With NCCCNC(=O)c1ccc(O)cc1 the screen gave Mtb glucose medium: 0.3517%.
With COC(C(=O)Nc1cnccc1CO)c1ccccc1 (stereo not given) the screen gave Mtb glucose medium: 8.346%.
With CCSCC(=O)NCc1cccc(C(=O)NC2CC2)c1 the screen gave Mtb glucose medium: -1.263%.
With COc1ccc(CNC(=O)C(C)(C)C)c(OC)c1OC the screen gave Mtb cholesterol medium: 11.44%.
With O=C1CN(c2ncnc3c2cnn3CCO)CCN1 the screen gave Mtb glucose medium: -1.717%.
With CCS(=O)(=O)c1cccc(S(=O)(=O)N2CC[C@H](N)C2)c1 the screen gave Mtb glucose medium: 26.81%; Mtb cholesterol medium: 17.36%.
With CC(C)CN1C(=O)c2cccn2CC1CN (stereo not given) the screen gave Mtb glucose medium: 34.03%.
With N#Cc1ccnc(NCCC(=O)NC2CCCCC2)c1 the screen gave Mtb glucose medium: -12.35%; Mtb cholesterol medium: -29.18%.
With C[C@@H]1CN(Cc2ccccc2)C[C@@H](C)C1=O the screen gave Mtb glucose medium: 7.801%.
With O=C(Cc1cccc(O)c1)N1CCCC1 the screen gave Mtb glucose medium: 17.91%.
With Cn1nccc1CNS(=O)(=O)c1nccs1 the screen gave Mtb cholesterol medium: -4.627%.
With COc1ccnc(N2CC[S+]([O-])CC2)n1 the screen gave Mtb glucose medium: 10.98%; Mtb cholesterol medium: -0.0183%.
With C=C(C)CN1CCN(CC(=C)C)C(C(=O)N(C)C)C1 (stereo not given) the screen gave Mtb cholesterol medium: 0.6462%.
With CNc1ncc(Br)s1 the screen gave Mtb glucose medium: -17.28%.
With COCCC(C)NC(=O)Nc1ccc(C#N)cc1 (stereo not given) the screen gave Mtb glucose medium: 57.64%; Mtb cholesterol medium: 59.05%.
With COCCCNc1ccc(C(F)(F)F)cn1 the screen gave Mtb glucose medium: -5.247%; Mtb cholesterol medium: 2.212%.
With CC(CNC(=O)c1cccc(F)c1)N1CCN(C)CC1 (stereo not given) the screen gave Mtb cholesterol medium: 13.02%.
With CC(C(=O)Nc1cnc2ccccc2c1)S(C)(=O)=O (stereo not given) the screen gave Mtb glucose medium: 21.07%.
With CNC1CCN(C(=O)Cc2cc(F)ccc2F)CC1 the screen gave Mtb cholesterol medium: -0.3232%.
With Cc1cc(C(=O)N2C[C@@H](CO)[C@H](N(C)C)C2)c(C)o1 the screen gave Mtb glucose medium: 17.62%.
With O=C(c1ccccc1I)N1CCNCC1 the screen gave Mtb glucose medium: 18.94%.
With CSCC(CCO)Nc1cc(C#N)c2ccccc2n1 (stereo not given) the screen gave Mtb glucose medium: -6.82%.
With OCCOc1ccc(CNCCn2cccn2)c(Br)c1 the screen gave Mtb glucose medium: 43.37%.
With Cn1ccc(CNC(=O)NCC2CC2)c1 the screen gave Mtb cholesterol medium: 34.58%.
With Cc1noc(C)c1S(=O)(=O)NCC1CCCOC1 (stereo not given) the screen gave Mtb glucose medium: 1.546%.
With CNC(=O)CCN1CCSC2(CCCCC2)C1 the screen gave Mtb cholesterol medium: 20.32%.
With CN(Cc1nc2ccccc2[nH]1)C(=O)c1cnc[nH]1 the screen gave Mtb glucose medium: 14.4%.
With CN1N=C(C(=O)N2CCCCCC2)CCC1=O the screen gave Mtb glucose medium: 14.68%.
With CCn1ncc2c1CCCC2N (stereo not given) the screen gave Mtb glucose medium: -4.771%.
With CNC(=O)c1noc(CN(C)CC2CCC2)n1 the screen gave Mtb cholesterol medium: 24.14%.
With OCCOCCNCc1ccc(-c2ccc(F)cc2)o1 the screen gave Mtb glucose medium: 56.12%; Mtb cholesterol medium: 53.82%.
With c1cc(CC2CCNC2)ccn1 (stereo not given) the screen gave Mtb glucose medium: -3.364%.
With c1ccc(CNc2cc(-n3cccn3)ncn2)cc1 the screen gave Mtb glucose medium: 53.49%; Mtb cholesterol medium: 3.327%.
With N[C@H]1CN(S(=O)(=O)N2CCOCC2)C[C@@H]1C1CC1 the screen gave Mtb glucose medium: 11.25%.
With CSc1ccccc1-c1[nH][nH]c(=O)c1CCN the screen gave Mtb glucose medium: 35.53%.
With CN(C)c1cc(CNC(=O)NC2CCCC2)ccn1 the screen gave Mtb glucose medium: 17.26%.
With N[C@@H]1C[C@H]1c1cccc(F)c1F the screen gave Mtb glucose medium: 46.79%.
With O=S(=O)(CC1CCCC1)N1CCCC(CO)C1 (stereo not given) the screen gave Mtb glucose medium: 25.72%.

The first 3 entries again:

{"compound": "CC(C(=O)NCc1ncccc1F)N1CCSCC1", "stereo": "stereo not given", "Mtb cholesterol medium": 17.16}
{"compound": "Cc1nnc(SCC(=O)NCC(C)C)s1", "Mtb glucose medium": 16.04, "Mtb cholesterol medium": 11.78}
{"compound": "NC1CCN(Cc2ccccc2)C1=O", "stereo": "stereo not given", "Mtb glucose medium": -4.999, "Mtb cholesterol medium": -34.45}

From ChEMBL document CHEMBL3988442, “University of Dundee, Small-Polar-MMV Screening Library” (2021).